Results as given in PubChem BioAssay AID540276 (National Center for Advancing Translational Sciences (NCATS), 2011).
“And” between values parts separate entries of the source, which are not always exact repeats. Equal entries are not always repeated. The list shows a part of the results, in another mix than the full data. Records with an inconclusive call do not appear. The source made the active and inactive calls. The call rests on the fitted dose curve; tested in HEK293 cells.

experiment: qHTS for inhibitors of binding or entry into cells for Marburg Virus; conditions: Marburg virus pseudotyped entry inhibition, cell reporter; at 37.8 µM (top of the series) unless noted
On the % scale 0 is the no-effect control and ±100 the full control effect.

Row | SMILES | activity change, negative = inhibition
1 | CC(C)C(=O)NC(Sc1ccccc1)C(Cl)(Cl)Cl (configuration not stated) | inactive: 10.7%
2 | O=P(Nc1nccs1)(c1ccccc1)c1ccccc1 | inactive: -3.85%
3 | c1nnnn1CCn1cnnn1 | inactive: -12.4% [at 46.1 µM]
4 | O=[As](O)(c1ccccc1)c1ccc(O)cc1 | inactive: 15% [at 46.1 µM]
5 | O=[N+]([O-])c1ccc(OP2(=O)COCCO2)cc1 (configuration not stated) | inactive: -11.6% [at 46.1 µM]
6 | C(Cc1nn[nH]n1)Cc1nn[nH]n1 | inactive: -1.04%
7 | Nc1ccc([As](=O)(O)c2ccc([N+](=O)[O-])cc2)cc1 | inactive: 2% [at 46.1 µM]
8 | CN(C)C1(CNC(=O)c2ccc(Cl)c(S(N)(=O)=O)c2)CCCCC1 | inactive: -12.4%
9 | CN(C)CCOC(=O)C(O)(c1ccccc1)C1CCCCC1 (configuration not stated) | inactive: -4.89%
10 | O=P(Nc1nc2ccccc2s1)(c1ccccc1)c1ccccc1 | inactive: -29.6% [at 46.1 µM]
11 | O=C(OC1CN2CCC1CC2)c1ccccc1 (configuration not stated) | inactive: 22.8%
12 | CCC(=O)N1C2C3N(C(=O)CC)C1C1N(C(=O)CC)C(C(N1C(=O)CC)N3C(=O)CC)N2C(=O)CC | inactive: 1.18%
13 | COC(=O)c1cc2c(s1)N=C(c1ccccc1)N(C)P2(=O)N1CCOCC1 (configuration not stated) | inactive: -0.0344%
14 | CN(C)C(=O)Oc1noc2ccccc12 | inactive: 1.66% [at 46.1 µM]
15 | CCOC(=O)NC(Sc1ccccc1)C(Cl)(Cl)Cl (configuration not stated) | inactive: 3.07%
16 | Cc1ccc(NP(=O)(Oc2cccc(C)c2)Oc2cccc(C)c2)nc1 | inactive: -24.2% [at 14.2 µM]
17 | CCNC(=S)/N=C(\N)N[N+](=O)[O-] | inactive: 15.2% [at 46.1 µM]
18 | O=C(NC1CCS(=O)(=O)C1)NP(=S)(Oc1ccccc1)Oc1ccccc1 (configuration not stated) | inactive: 18.1% [at 46.1 µM]
19 | O=P1(N(CCCl)CCCl)OCCC2CCCCN21 (configuration not stated) | inactive: -0.774% [at 46.1 µM]
20 | COC(=O)C1(C)COP(=O)(NCc2ccccc2)OC1 (configuration not stated) | inactive: 12.8%
21 | CC(=O)Nc1ccc([As](=O)(O)O)c(O)c1 | inactive: 5.52% [at 46.1 µM]
22 | CC(C)(C)C(=O)NC(Sc1ccccc1)C(Cl)(Cl)Cl (configuration not stated) | inactive: 0.418% [at 46.1 µM]
23 | CCc1cc(O)c([N+](=O)[O-])c(C)c1[N+](=O)[O-] | inactive: 14.4%
24 | Oc1ccccc1CNc1ccccn1 | inactive: 18.4%
25 | O=C(NC(Sc1ccncn1)C(Cl)(Cl)Cl)c1ccccc1 (configuration not stated) | inactive: -9.03%

Row | SMILES | activity change, negative = inhibition
26 | Cc1c2non([O-])c-2c(C)[n+](=O)[n+]1[O-] | inactive: 1.7%
27 | Nc1cc(N)c2nonc2c1[N+](=O)[O-] | inactive: 9.75%
28 | Cc1ccc(N/C(=N/P(=O)(N2CCOCC2)N2CCOCC2)N2CCOCC2)cc1 | inactive: 0.0413% [at 46.1 µM]
29 | NC(=O)c1cc([N+](=O)[O-])cc([N+](=O)[O-])c1N | inactive: 0.0723%
30 | CN1CCCC(OC(=O)C(c2ccccc2)c2ccccc2)C1 (configuration not stated) | inactive: 2.93%
31 | CN(C)CCOC(=O)C(O)(c1ccccc1)C1CCCC1 (configuration not stated) | inactive: 3.29%
32 | Cc1ccc(OP(=O)(Nc2nccs2)Oc2ccc(C)cc2)cc1 | inactive: -7.81%
33 | O=P(Nc1nc2ccc(Cl)cc2s1)(c1ccccc1)c1ccccc1 | inactive: 8.31% [at 14.2 µM]
34 | CC(=O)Nc1ccc([As](=O)(O)O)cc1 | inactive: -2.5% [at 46.1 µM]
35 | O=C(O)c1ccccc1[As](=O)(O)O | inactive: 9.95% [at 46.1 µM]
36 | CCCC1OP(N)(=O)OCC1CC (configuration not stated) | inactive: 0.555% [at 46.1 µM]
37 | Cc1cc(SC(NC(=O)c2ccc(F)cc2)C(Cl)(Cl)Cl)ncn1 (configuration not stated) | inactive: 4.3%
38 | CCOP(=O)(Nc1ccccc1)OCC | inactive: 4.95%
39 | Cc1ccc(NP(=O)(Oc2ccccc2F)Oc2ccccc2F)nc1 | inactive: 1.67% [at 46.1 µM]
40 | O=[N+]([O-])c1ncn(CCn2ncnc2[N+](=O)[O-])n1 | inactive: 5.43%
41 | COC(=O)C1(C)COP(=O)(Nc2ccccc2)OC1 (configuration not stated) | inactive: 11.9%
42 | O=P1(N(CCCl)CCCl)OCCCS1 (configuration not stated) | inactive: -5.45% [at 46.1 µM]
43 | CCN(/C(=N/P(=O)(N1CCOCC1)N1CCOCC1)N1CCOCC1)c1ccc(OC)cc1 | inactive: -1.82% [at 46.1 µM]
44 | Nc1ccc([As](=O)(O)c2ccc(N)cc2)cc1 | inactive: 19.8% [at 46.1 µM]
45 | CC1CCN(C(=O)Oc2c(Cl)cc(Cl)c3cccnc23)CC1 | inactive: 0.411%
46 | CC(C)=N/N=C(\N)N[N+](=O)[O-] | inactive: 7.59% [at 46.1 µM]
47 | CN(C)C(=O)OCCc1n(C)cc[n+]1C | inactive: -4.28%
48 | Cc1cccc(OCC(=O)O[C@@H]2CN3CCC2CC3)c1 | inactive: 1.19%
49 | COc1ccc(C2=NCC(CBr)S2)cc1 (configuration not stated) | inactive: -21.1% [at 46.1 µM]
50 | Cc1ccc(NP(=O)(Oc2ccccc2)Oc2ccccc2)nc1 | inactive: 0.189% [at 46.1 µM]

Row | SMILES | activity change, negative = inhibition
51 | O=[N+]([O-])c1cc([N+](=O)[O-])c(CCNc2ccccc2)c([N+](=O)[O-])c1 | inactive: 2.7% [at 46.1 µM]
52 | O=[N+]([O-])c1cccc2n[nH]nc12 | inactive: 11.4%
53 | CC(=O)N1C2C3N(C(C)=O)C1C1N(C(C)=O)C(C(N1C(C)=O)N3C(C)=O)N2C(C)=O | inactive: 6.96%
54 | CCOC(=O)c1ccc(NC(=O)C(C)(CCl)SC)cc1 (configuration not stated) | inactive: 11.9% [at 46.1 µM]
55 | CCC(C)N(CC(C)C)C(=S)SC(NC(C)=O)C(Cl)(Cl)Cl (configuration not stated) | inactive: -28.7%
56 | COP1(=S)c2c(C)nn(CCC#N)c2N=C(c2ccc(F)cc2)N1C (configuration not stated) | inactive: -2.17%
57 | O=C(COc1ccccc1)OC1CN2CCC1CC2 (configuration not stated) | inactive: -1.69%
58 | CCOC(=O)Nc1cccc([As](=O)(O)O)c1 | inactive: 7.99% [at 46.1 µM]
59 | Cc1cc(SC(NC=O)C(Cl)(Cl)Cl)ncn1 (configuration not stated) | inactive: -5.6% [at 46.1 µM]
60 | CC1CCNP(=O)(N(CCCl)CCCl)O1 (configuration not stated) | inactive: 5.69%
61 | CCCCOc1ccc(C(=O)NCC2(N3CCCCC3)CCCCC2)cc1OC | inactive: -22.6% [at 46.1 µM]
62 | Cc1cc(SC(NC(=O)c2ccccc2)C(Cl)(Cl)Cl)nc(C(C)C)n1 (configuration not stated) | inactive: -2.47%
63 | ClCCSc1nnc(-c2cccnc2)o1 | inactive: 16.1%
64 | CC(C)NC(=O)NP(=O)(Oc1ccccc1)Oc1ccccc1 | inactive: 0.0512% [at 46.1 µM]
65 | O=C(OC1CN2CCC1CC2)c1cccc2[nH]cnc12 (configuration not stated) | inactive: 8.13%
66 | CCN(CC)C(=S)SC(NC=O)C(Cl)(Cl)Cl (configuration not stated) | inactive: 25.3%
67 | O=[As](O)(c1ccc(O)cc1)c1ccccc1O | inactive: 9.4%
68 | O=[N+]([O-])c1ccc(-c2cc([N+](=O)[O-])c(O)c([N+](=O)[O-])c2)cc1 | inactive: 7.97%
69 | Cc1ccc2nc3c(c(C)c2c1)CC(C(Cl)Cl)S3 (configuration not stated) | inactive: -8.56% [at 46.1 µM]
70 | COc1ccc(N/C(=N/P(=O)(N2CCOCC2)N2CCOCC2)N2CCOCC2)cc1 | inactive: -0.372%
71 | Cc1c2c(nc3ccccc13)SC(C(Cl)Cl)C2 (configuration not stated) | inactive: 1.77%
72 | Cc1ccc(OCC(=O)O[C@@H]2CN3CCC2CC3)cc1 | inactive: -9.02%
73 | COc1ccc2nc(NP(=O)(c3ccccc3)c3ccccc3)sc2c1 | inactive: -3.98% [at 46.1 µM]
74 | COc1cc(I)ccc1[As](=O)(O)O | inactive: -6.19% [at 46.1 µM]
75 | CCOP(=O)(Nc1cccc2ccccc12)OCC | inactive: 16.1%

Row | SMILES | activity change, negative = inhibition
76 | O=C(OC1CN2CCC1CC2)c1ccc(Cl)cc1 (configuration not stated) | inactive: -1.83% [at 46.1 µM]
77 | CS(=O)(=O)c1ccc(Cl)c(NC(=O)COC(=O)C(O)(c2ccccc2)c2ccccc2)c1 | inactive: -25.5%
78 | Cc1cccc(OCC(=O)OC2CN3CCC2CC3)c1 (configuration not stated) | inactive: 1.19%
79 | N#CCCN(C(=O)COC(=O)C(O)(c1ccccc1)c1ccccc1)c1ccc(F)cc1 | inactive: -1.04%
80 | CCOP1(=S)c2c(C)nn(CCC#N)c2N=C(c2ccc(F)cc2)N1C (configuration not stated) | inactive: -4.84%
81 | CN(C(=O)Cc1ccccc1)[C@@H]1CC[C@]2(CCCO2)C[C@H]1N1CCCC1 | inactive: -4.3%
82 | O=[N+]([O-])c1ccc2c(c1)nnn2O | inactive: 4.68%
83 | CCOP1(=S)c2c(C)nn(CCC#N)c2N=C(c2ccccc2F)N1C (configuration not stated) | inactive: 0.452%
84 | CS(=O)(=O)c1cc([N+](=O)[O-])c2no[n+]([O-])c2c1 | inactive: 7.2% [at 46.1 µM]
85 | Nc1ccccc1[As](=O)(O)c1ccccc1 | inactive: 7.37%
86 | O=C(O)COc1ccc([As](=O)(O)O)cc1[N+](=O)[O-] | inactive: -1.49% [at 46.1 µM]
87 | O=P1(Nc2ncccn2)COc2ccccc2OC1 | inactive: -2.12%
88 | Cc1ccc(OCC(=O)OC2CN3CCC2CC3)cc1 (configuration not stated) | inactive: -9.02%
89 | O=P1(Nc2ccc(Br)cn2)COc2ccccc2OC1 | inactive: 16.8%
90 | Cc1nn(-c2ccccc2)c2c1P(=O)(N1CCOCC1)N(C)C(c1ccccc1)=N2 (configuration not stated) | inactive: 14.3% and inactive: -1.13%
91 | COc1cc(C2NCCC3(OCCO3)C2(C)C)cc(OC)c1OC.O=[N+]([O-])c1cc([N+](=O)[O-])c(O)c([N+](=O)[O-])c1 (configuration not stated) | inactive: -22.1%
92 | O=C(/C=C/c1ccccc1)OC1CN2CCC1CC2 (configuration not stated) | inactive: -8.26%
93 | CCCC1OP(=O)(Nc2ccccc2)OCC1CC (configuration not stated) | inactive: -29.2% [at 46.1 µM]
94 | CC(C)/C=N\N=C(\N)N[N+](=O)[O-] | inactive: 16.6% [at 46.1 µM]
95 | CC1(CBr)Cn2c(nc3ccccc3c2=O)S1 (configuration not stated) | inactive: -19.5%
96 | O=P1(Nc2ccccn2)COc2ccccc2OC1 | inactive: 31.7%
97 | Clc1n[nH]nc1-c1nn[nH][15n]1 | inactive: -2.21%
